Compound potency records, mixed from different reports. Data source: NIAID ChemDB in PubChem.

All rows: whole-cell or culture tests; species: Hepatitis C virus; method: replicon; read-out: EC50

a–b is a range or a potency band. Neighbouring rows are from separate reports. ECn is the concentration giving n% inhibition of infection, replication or growth. An empty or dashed field is not shown.

compound | setting | strain or isolate | cells | value
CNC(=O)c1c(-c2ccc(F)cc2)oc2cc(N(C)S(C)(=O)=O)c(OCc3nnsc3Cl)cc12 |  |  | Huh7 | <1 µM
OC[C@@H]1C[C@@H](O)[C@H](n2cnc3c(-c4ccccc4)ncnc32)O1 |  |  |  | >10 µM
CN(C)C(=O)CN1CCn2c(c(C3CCCCC3)c3ccc(C(=O)O)cc32)-c2ccccc21 | 10% FBS |  | Huh7 | 0.21 µM
COc1ccc2c(c1)[C@@H]1C[C@]1(C(=O)N1C3CCC1CN(C)C3)Cn1c-2c(C2CCCCC2)c2ccc(C(=O)O)cc21 |  | 1b |  | 0.001–0.5 µM
CNC(=O)c1c(-c2ccc(F)cc2)oc2cc(NS(=O)(=O)CCCCl)c(OC(C)C)cc12 |  |  | Huh7 | <1 µM
CNC(=O)c1cnccc1Nc1nc(-c2cc(Cl)ccc2F)nc2ncccc12 |  |  | Huh7 | 12 µM
COc1ccc2c(c1)C1CC1(C(=O)N1[C@@H]3C[C@H]1CN(Cc1ccccc1)C3)Cn1c-2c(C2CCCCC2)c2ccc(C(=O)NS(=O)(=O)N(C)C)cc21 |  | 1b |  | 0.001–0.5 µM
O=C(O)/C=C/c1ccc2nc(C3(NC(=O)c4ccc5c(C6CCCCC6)c6c7ccccc7ncn6c5c4)CCCC3)[nH]c2c1 |  |  | Huh7 | 0.01–1 µM
CCN(CC)c1ccc(C2Nc3cc(C(=O)c4ccccc4)ccc3NC3=C2C(=O)CC(C)(C)C3)cc1 |  |  | Huh7 | 22.9 µM
C=C[C@H]1C[C@@]1(NC(=O)[C@@H]1C[C@@H](Oc2cc(-c3ccccc3)nc3cc(OC)ccc23)CN1C(=O)[C@@H](NC(=O)OC(C)(C)C)C(C)(C)C)C(=O)NS(=O)(=O)C1(Cc2ncoc2-c2ccccc2)CC1 |  | 1b | Huh7 | <0.05 µM
COc1ccc2c(c1)[C@@H]1C[C@]1(C(=O)N1[C@@H]3C[C@H]1CN(S(C)(=O)=O)C3)Cn1c-2c(C2CCCCC2)c2ccc(C(=O)NS(=O)(=O)N(C)C)cc21 |  | 1b |  | 0.001–0.5 µM
CN(C)S(=O)(=O)NC(=O)c1ccc2c(C3CCCCC3)c3n(c2c1)CC(C(=O)N1CCOCC1)Cc1cccnc1-3 |  |  | Huh7 | 0.01–1 µM
CCN(CC)c1ccc(C2CC(=O)C3=C(C2)Nc2ccccc2N(C(C)=O)C3c2ccccc2)cc1 |  |  | Huh7 | >32 µM
OC[C@@H]1C[C@@H](O)[C@H](n2cnc3c(-c4cccs4)ncnc32)O1 |  |  |  | >10 µM
O=C1CC(c2ccccc2)CC2=C1C(c1ccc(Cl)cc1)Nc1ccc(C(=O)c3ccccc3)cc1N2 |  |  | Huh7 | 4.517 µM
COC(=O)[C@H](Cc1c[nH]c2ccccc12)NC(=O)c1ccc2nc(-c3ccco3)c(-c3ccco3)nc2c1 |  |  | Huh7 | 10–50 µM
COC(=O)c1ccc2c(C3CCCCC3)c3n(c2c1)C[C@@]1(C(=O)N2C4CCC2CN(C)C4)C[C@H]1c1cc(OC)ccc1-3 |  | 1b |  | 0.001–0.5 µM
COc1ncc(OC)c(N2CCN(S(=O)(=O)c3ccc(OC(F)(F)F)cc3)C(C(=O)NCc3ccc(OC(F)(F)F)cc3)C2)n1 |  | 1b |  | 0.4 µM
CN(C)CCN1CCn2c(c(C3CCCCC3)c3ccc(C(=O)O)cc32)-c2ccccc21 | 10% FBS |  | Huh7 | 0.053 µM
Clc1cccc(-c2nc(Nc3ccncc3)c3cccnc3n2)c1 |  |  | Huh7 | 0.57 µM
CCc1ccc(S(=O)(=O)N2CCN(c3cc(OC)cc(OC)c3)CC2C(=O)N(Cc2ccccc2Cl)Cc2ccccc2Cl)cc1 |  | 1b |  | 37 µM
O=C(O)c1ccc2nc(-c3ccc(F)cc3)c(-c3ccc(F)cc3)nc2c1 |  |  | Huh7 | >50 µM
Cc1ccc(C(=O)Nc2ccc(N3CCOCC3)cc2)cc1-c1ccc(C(=O)Nc2ccc(CC3CCN(S(C)(=O)=O)CC3)cc2)cc1 |  | 1b |  | 2.3 µM
C=CCN(c1cc2oc(-c3ccc(F)cc3)c(C(=O)NC)c2cc1OC(C)C)S(C)(=O)=O |  |  | Huh7 | <1 µM
CB1OC[C@@H](C)C1NC(=O)[C@@H]1C[C@@H]2CN1C(=O)[C@H](C(C)(C)C)NC(=O)OCC(C)(C)CCCCc1cccc3c1CN(C3)C(=O)O2 | genotype 1b |  |  | 30 µM
OC[C@@H]1C[C@@H](O)[C@H](n2cnc3c(-c4ccsc4)ncnc32)O1 |  |  |  | >10 µM
CN(C)CCNC(=O)C1=Cc2nccnc2-c2c(C3CCCCC3)c3ccc(C(=O)NC4(C(=O)Nc5ccc(/C=C/C(=O)O)cc5)CCCC4)cc3n2C1 |  |  | Huh7 | 0.01–1 µM
O=C1/C(=C\c2ccc(Cl)cc2)C(=O)N(C2CCCCC2)C(=S)N1c1cccc2ccccc12 |  |  |  | 6.2 µM
Cc1ccc(NC(=O)c2ccc(N3CCOCC3)cc2)cc1-c1ccc(C(=O)Nc2ccc(CN3CCS(=O)(=O)CC3)cc2)cc1 |  | 1b |  | 0.22 µM
COc1ccc2c(c1)C1CC1(C(=O)N1[C@@H]3C[C@H]1CN(C(C)=O)C3)Cn1c-2c(C2CCCCC2)c2ccc(C(=O)NS(=O)(=O)N(C)C)cc21 |  | 1b |  | 0.001–0.5 µM
CCC[C@H](NC(=O)[C@@H]1[C@H]2CCC[C@H]2CN1C(=O)[C@@H](NC(=O)[C@@H](NC(=O)c1cnccn1)C1CCCCC1)C(C)(C)C)C(=O)C(=O)NC1CC1 | 40% human serum |  | Huh7 | 3.45 µM
C=C[C@H]1C[C@@]1(NC(=O)[C@@H]1C[C@@H](Oc2cc(-c3ccccc3)nc3cc(OC)ccc23)CN1C(=O)[C@@H](NC(=O)OC(C)(C)C)C(C)(C)C)C(=O)NS(=O)(=O)C1(CCCC)CC1 |  | 1b | Huh7 | <0.05 µM
CNC(=O)c1c(-c2ccc(F)cc2)oc2cc(N3CCOCC3)c(OCc3noc(-c4c(C)noc4C)n3)cc12 |  |  | Huh7 | <10 µM
C=CC1C[C@@]1(NC(=O)[C@@H]1C[C@@H](Oc2cc(-c3ccccc3)nc3cc(OC)ccc23)CN1C(=O)[C@@H](NC(=O)Oc1ccc(F)cc1)C(C)(C)C)C(=O)NS(=O)(=O)C1(Cc2ccccc2)CC1 |  | 1b | Huh7 | 0.5–5 µM
CB1OCCC1NC(=O)[C@@H]1C[C@@H]2CN1C(=O)[C@H](C(C)(C)C)NC(=O)OCC(C)(C)CCCCc1cccc3c1CN(C3)C(=O)O2 | genotype 1a |  |  | 11 µM
CN(C)S(=O)(=O)NC(=O)c1ccc2c(C3CCCCC3)c3n(c2c1)C[C@@H](O)[C@@H](O)c1ncccc1-3 |  |  | Huh7 | >10 µM
COC(=O)c1ccc2nc(-c3ccc(F)cc3)c(-c3ccc(F)cc3)nc2c1 |  |  | Huh7 | >50 µM
CCC(=O)N1c2ccccc2NC2=C(C(=O)CC(c3ccc(OC)c(OC)c3)C2)C1c1ccccc1OC(C)CC |  |  | Huh7 | 4.78 µM
CCOC(=O)c1cnccc1Nc1nc(-c2cc(Cl)ccc2F)nc2ncccc12 |  |  | Huh7 | 1.1 µM
CCOc1nc(N)nc2c1ncn2[C@@H]1O[C@@H]2COP(=O)(OC(C)C)O[C@H]2[C@@]1(C)F | 137 d | 2a |  | 3.58 µM
CCN(CC)S(=O)(=O)NC(=O)c1ccc2c(C3CCCCC3)c3n(c2c1)CC(C(=O)N1CCOCC1)=Cc1ccccc1-3 |  |  | Huh7 | 0.01–1 µM
COC(=O)[C@H](Cc1c[nH]c2ccc(O)cc12)NC(=O)c1ccc2nc(-c3ccc(Cl)cc3)c(-c3ccc(C)cc3)nc2c1 |  |  | Huh7 | <10 µM
COC(=O)N[C@H](C(=O)N1CC2(CC2)C[C@H]1c1ncc(-c2ccc3c(c2)C(F)(F)c2cc(-c4ccc5nc([C@@H]6[C@H]7CC[C@H](C7)N6C(=O)[C@@H](NC(=O)OC)C(C)C)[nH]c5c4)ccc2-3)[nH]1)C(C)C |  | Genotype 1A | HCV replicon cells | 0.000034 µM
C=C[C@H]1C[C@@]1(NC(=O)[C@@H]1C[C@@H](Oc2ccnc3cc(Cl)ccc23)CN1C(=O)[C@@H](NC(=O)OC1CCCC1)C(C)(C)C)C(=O)NS(=O)(=O)C1(CC2CC2)CC1 |  | 1b | Huh7 | 0.05–0.5 µM
CNC(=O)c1c(-c2ccc(F)cc2)oc2cc(N3CCC(O)CC3)c(OC(C)C)cc12 |  |  | Huh7 | <10 µM
CN(Cc1ccccc1)c1ccc2c(Nc3ccncc3C(=O)O)nc(-c3cc(Cl)ccc3F)nc2n1 |  |  | Huh7 | >10 µM
C=C[C@H]1C[C@@]1(NC(=O)[C@@H]1C[C@@H](Oc2cc(-c3ccccc3)nc3cc(OC)ccc23)CN1C(=O)[C@@H](NC(=O)OC(C)(C)C)C(C)(C)C)C(=O)NS(=O)(=O)C1(CC2CCC2)CC1 |  | 1b | Huh7 | <0.05 µM
Cc1ccc(NC(=O)NC2CCCCC2)cc1-c1ccc(C(=O)Nc2ccc(CN3CCS(=O)(=O)CC3)cc2)cc1 |  | 1b |  | 0.09 µM
Cc1cc(C)n2nc(CC3=C(O)CC(CCc4ccc(C(C)(C)C#N)c(Cl)c4)(C4CCCC4)OC3=O)nc2n1 |  | FC |  | 146 µM
O=C(NS(=O)(=O)C1CC1)c1ccc2c(C3CCCCC3)c3n(c2c1)CC(C(=O)N1CCOCC1)=Cc1cccnc1-3 |  |  | Huh7 | 0.01–1 µM
Cc1ccc(C(=O)Nc2ccc(N3CCOCC3)cc2)cc1-c1ccc(C(=O)Nc2ccc(CN3CCS(=O)(=O)CC3)cc2)cc1 |  | 1b |  | 0.3 µM
Cc1cccc(N2C(=O)/C(=C\c3cc(-c4ccsc4)cs3)C(=O)N(c3ccc(F)cc3)C2=S)c1 |  |  |  | 5.6 µM
CCOc1cc2c(C(=O)NC)c(-c3ccc(F)cc3)oc2cc1N(C)S(C)(=O)=O |  |  | Huh7 | <1 µM
CN1CCN(C(=O)C2Cc3ccccc3-c3c(C4CCCCC4)c4ccc(C(=O)NC5(CNc6ccc(/C=C/C(=O)O)cc6)CCCC5)cc4n3C2)CC1 |  |  | Huh7 | 0.01–1 µM
CNC(=O)c1c(-c2ccc(F)cc2)oc2cc(N(C)S(C)(=O)=O)c(OCc3ccc(C(=O)OC)cc3)cc12 |  |  | Huh7 | <1 µM
Nc1ccc2c(Nc3ccncc3)nc(-c3cccc(Cl)c3)nc2n1 |  |  | Huh7 | 1.8 µM

Repeating the first 4 entries:

| compound | setting | strain or isolate | cells | value |
|---|---|---|---|---|
| CNC(=O)c1c(-c2ccc(F)cc2)oc2cc(N(C)S(C)(=O)=O)c(OCc3nnsc3Cl)cc12 |  |  | Huh7 | <1 µM |
| OC[C@@H]1C[C@@H](O)[C@H](n2cnc3c(-c4ccccc4)ncnc32)O1 |  |  |  | >10 µM |
| CN(C)C(=O)CN1CCn2c(c(C3CCCCC3)c3ccc(C(=O)O)cc32)-c2ccccc21 | 10% FBS |  | Huh7 | 0.21 µM |
| COc1ccc2c(c1)[C@@H]1C[C@]1(C(=O)N1C3CCC1CN(C)C3)Cn1c-2c(C2CCCCC2)c2ccc(C(=O)O)cc21 |  | 1b |  | 0.001–0.5 µM |